Compound potency records, mixed from different reports. Data source: NIAID ChemDB in PubChem.

Shared fields: tests on isolated targets

Conditions beyond the fields shown may differ between rows.

smiles | target | read by | strain or isolate | read-out | tested at | changes | organism | result
CCN(C(=O)OCc1ccccc1)C1CCN(CC[C@](C)(CN(C)S(=O)(=O)c2ccccc2)c2ccccc2)CC1 | CCR5 | radiometric |  | IC50 |  | CCR5-Y37A |  | 0.0029 µM
CC[C@H]1C(=O)Nc2ccc(F)cc2N1C(=O)OC(C)C | Reverse transcriptase | nucleotide incorporation / radiometric |  | fold resistance |  | RT-N137T | HIV | 2.7
O=C1NC(=O)C([N+](=O)[O-])C(=O)N1 | Uracil phosphoribosyltransferase |  | RH | inhibition | 2000 µM |  | Toxoplasma gondii | <5%
O=C(c1ccccc1)N1C[C@H](CN2CCC(c3ccccc3)CC2)[C@@H](c2ccccc2)C1 | CCR5 | radiometric |  | fold resistance |  | CCR5-Y251A |  | 11
O=C(Nc1nnc(NCc2ccncc2)s1)c1ccc(Cl)c(Cl)c1 | Polymerase |  |  | IC50 |  |  | Human cytomegalovirus | >25 µM
Nc1cnccn1 | Uracil phosphoribosyltransferase |  | RH | IC50 |  |  | Toxoplasma gondii | >2000 µM
Cc1cn([C@@H]2O[C@H](CO[Si](C)(C)C(C)(C)C)[C@@]3(OS(=O)(=O)C=C3N)[C@H]2O[Si](C)(C)C(C)(C)C)c(=O)[nH]c1=O | Reverse transcriptase | nucleotide incorporation / radiometric |  | fold resistance |  | RT-P95A | HIV | 0.56
COc1cnccn1 | Uracil phosphoribosyltransferase |  | RH | IC50 |  |  | Toxoplasma gondii | >2000 µM
O=C(Nc1nnc(NC2CCN(Cc3ccccc3)CC2)s1)c1ccc(Br)cc1 | Polymerase |  |  | IC50 |  |  | Human cytomegalovirus | >25 µM
C=CCN(C(=O)OCc1ccc([N+](=O)[O-])cc1)C1CCN(CC[C@](C)(CN(C)S(=O)(=O)c2ccccc2)c2ccccc2)CC1 | CCR5 | radiometric |  | fold resistance |  | CCR5-Y108A |  | 135.3
Cc1cn([C@@H]2O[C@H](CO[Si](C)(C)C(C)(C)C)C3(OS(=O)(=O)C=C3N)[C@H]2O[Si](C)(C)C(C)(C)C)c(=O)n(C)c1=O | Reverse transcriptase | nucleotide incorporation / radiometric |  | IC50 |  | RT-N137T | HIV | 0.3 µM
O=C(Nc1nnc(NCc2ccc3c(c2)OCO3)s1)c1ccc(I)cc1 | Polymerase |  |  | IC50 |  |  | Human cytomegalovirus | >25 µM
O=C1NC(=O)C(Cc2ccc(OCc3ccccc3)cc2)C(=O)N1 | Uracil phosphoribosyltransferase |  | RH | inhibition | 2000 µM |  | Toxoplasma gondii | <5%
CCCCCCCC/C=C/CCCCCCCC(=O)Nc1nnc(NCC2CC2)s1 | Polymerase |  |  | IC50 |  |  | Human cytomegalovirus | <25 µM
Cc1cc(=O)[nH]c(=O)[nH]1 | Uracil phosphoribosyltransferase |  | RH | inhibition | 2000 µM |  | Toxoplasma gondii | <5%

Fold resistance: result on the changed form divided by that on wild type. Blank or dashed fields: not listed here. Inhibition is in % at the dose shown (toxicity tests: loss of growth or viability). ICn: concentration for n% inhibition.